The values below come from ChEMBL document CHEMBL1156829 (Proc Natl Acad Sci U S A, 2008).

In general, EC50 refers to the concentration at which the effect is half-maximal. Read a low EC50 as greater potency.

SMILES strings stand for the structures.

Test [1] has as its system Plasmodium falciparum. The experiment in a line: NOVARTIS: Inhibition of Plasmodium falciparum 3D7 (drug-susceptible) proliferation in erythrocyte-based infection assay. Type of test: functional, organism-based.
In test [2] the test system is Plasmodium falciparum. The experiment in a line: NOVARTIS: Inhibition of Plasmodium falciparum W2 (drug-resistant) proliferation in erythrocyte-based infection assay. Type of test: functional, organism-based.

As to `CCCN(CCC)[P+](C)(N(CCC)CCC)N(CCC)CCC`, the EC50 worked out at 895 nM in test [1] and 580 nM in test [2].

Consider `CN(C)[P+](C)(N(C)C)N(C)C`, for which the EC50 is 442 nM in test [1] and 382 nM in test [2].

On to `CCCN(CCC)[P+](CC)(N(CCC)CCC)N(CCC)CCC`, for which the EC50 in test [1] stood at 207 nM; in test [2] it was 273 nM.
